# Assay results: publication PMC5634595, “Properties of halogenated and sulfonated porphyrins relevant for the selection of photosensitizers in anticancer and antimicrobial therapies” (PLoS ONE, 2017)
# Tested on: A549, CT26 and 2H11 cells
# Test: Time-dependent cellular uptake (cell line not told apart)
# Format: cell-based
compound,measurement,setting,value
"CCNS(=O)(=O)c1ccc(Cl)c(-c2c3nc(c(-c4c(Cl)ccc(S(=O)(=O)NCC)c4Cl)c4ccc([nH]4)c(-c4c(Cl)ccc(S(=O)(=O)NCC)c4Cl)c4nc(c(-c5c(Cl)ccc(S(=O)(=O)NCC)c5Cl)c5ccc2[nH]5)C=C4)C=C3)c1Cl [Cl2PEt, 5,10,15,20-tetrakis(2,6-dichloro-3-N-ethylsulfamoylphenyl)porphyrin]",Incubation time after which uptake stabilizes,PS in L121 micelles,4 to 6 h
same,Incubation time over which accumulation continues to increase,"from serum-DMSO medium, without polymer",20 h
